In PubChem BioAssay AID588499 (NMMLSC, 2011):
Only a part is listed here, and it is no random draw. Active and inactive are the calls of the source. Rule as the data show it: active = inhibition above about 30%; inconclusive = no clear call, values can overlap the other calls; inactive = below that.

Tested on: Botulinum neurotoxin type A light chain protease (Clostridium botulinum A str. ATCC 3502)
Assay: blockers of BoNT/A LC substrate cleavage – biochemical, flow cytometry, MLPCN library, primary screen (AID 588499); also: plate controls were buffer without enzyme for full effect and enzyme alone for no effect
Details: multiplex microsphere protease substrate cleavage, at 10 µM, stronger effect = higher value

Row | Structure (SMILES) | inhibition
1 | O=C(O)C(O)c1ccc(N(CCCl)CCCl)cc1 (stereo unspecified) | inactive: -1%
2 | CCOC(=O)Nc1ccc([As](=O)(O)O)c(O)c1 | inactive: -0.5%
3 | CC1CCNP(=O)(N(CCCl)CCCl)O1 (stereo unspecified) | inactive: -0.4%
4 | COP(=O)(OC)N1CC1c1ccccc1 (stereo unspecified) | inactive: -0.5%
5 | CCCCOc1ccc(C(=O)NCC2(N3CCCCC3)CCCCC2)cc1OC | inactive: -1.2%
6 | Cc1cc(SC(NC(=O)c2ccccc2)C(Cl)(Cl)Cl)nc(C(C)C)n1 (stereo unspecified) | inactive: -0.2%
7 | CCOC(=O)Nc1cccc([As](=O)(O)O)c1 | inactive: -1.3%
8 | Cc1cc(SC(NC=O)C(Cl)(Cl)Cl)ncn1 (stereo unspecified) | inactive: 0%
9 | O=P(Nc1ccccn1)(c1cccc2ccccc12)c1cccc2ccccc12 | inactive: -0.3%
10 | O=[N+]([O-])c1ccc(Nc2ccc(Oc3ccc([N+](=O)[O-])cc3[N+](=O)[O-])cc2)c([N+](=O)[O-])c1 | inactive: -0.8%
11 | COP1(=S)c2c(C)nn(CCC#N)c2N=C(c2ccc(F)cc2)N1C (stereo unspecified) | inactive: -0.5%
12 | COC(=O)C1(C)COP(=O)(N2CCCC2)OC1 (stereo unspecified) | inactive: -0.7%
13 | O=C(O)C(=O)c1ccc(N(CCCl)CCCl)cc1 | inactive: -0.3%
14 | O=C(COc1ccccc1)OC1CN2CCC1CC2 (stereo unspecified) | inactive: 0.4%
15 | O=C(Nc1ccncc1[N+](=O)[O-])c1ccc([N+](=O)[O-])cc1[N+](=O)[O-] | inactive: -1.3%
16 | O=C(OC1CN2CCC1CC2)c1cccc([N+](=O)[O-])c1 (stereo unspecified) | inactive: -1.2%
17 | CSc1ccc(Nc2c([N+](=O)[O-])cc([N+](=O)[O-])cc2[N+](=O)[O-])cc1 | inactive: 0.4%
18 | CCOC(=O)c1ccc(NC(=O)C(C)(CCl)SC)cc1 (stereo unspecified) | inactive: 2.5%
19 | CCC(C)N(CC(C)C)C(=S)SC(NC(C)=O)C(Cl)(Cl)Cl (stereo unspecified) | inactive: -1.9%
20 | Cc1c2c(nc3ccccc13)SC(C(Cl)Cl)C2 (stereo unspecified) | inactive: 0.5%
21 | O=C(OC1CN2CCC1CC2)C12CC3CC(CC(C3)C1)C2 (stereo unspecified) | inactive: 0.1%
22 | Cc1cc(=O)[nH]c(N[N+](=O)[O-])n1 | inactive: 0.1%
23 | O=P1(N(CCCl)CCCl)OCCCN1CCCl (stereo unspecified) | inactive: 0.2%
24 | O=P1(N(CCCl)CCCl)Nc2ccccc2N1 | inactive: 0.6%
25 | COc1ccc2nc(NP(=O)(c3ccccc3)c3ccccc3)sc2c1 | inactive: -0.2%
26 | COc1cc(I)ccc1[As](=O)(O)O | inactive: -0.5%

Row | Structure (SMILES) | inhibition
27 | O=[N+]([O-])c1cc(Oc2ccc([N+](=O)[O-])cc2C(F)(F)F)cc([N+](=O)[O-])c1 | inactive: 0.2%
28 | COc1ccc(N/C(=N/P(=O)(N2CCOCC2)N2CCOCC2)N2CCOCC2)cc1 | inactive: 0.3%
29 | O=[As](O)(c1ccc(O)cc1)c1ccccc1O | inactive: -0.1%
30 | C[As](=O)(O)c1cccc(C(=O)O)c1 | inactive: -0.4%
31 | COc1cc(C(=O)NCC2(N3CCOCC3)CCCCC2)ccc1OCC(C)C | inactive: 1.3%
32 | O=[N+]([O-])c1ccc(-c2cc([N+](=O)[O-])c(O)c([N+](=O)[O-])c2)cc1 | inactive: -0.3%
33 | Cc1ccc(OP(=O)(Nc2ccc([N+](=O)[O-])cn2)Oc2ccc(C)cc2)cc1 | inactive: 0.2%
34 | [N-]=[N+]=NC1CCCCC1NC(=O)c1cc([N+](=O)[O-])cc([N+](=O)[O-])c1 (stereo unspecified) | inactive: 0.4%
35 | Cc1ccc2nc3c(c(C)c2c1)CC(C(Cl)Cl)S3 (stereo unspecified) | inactive: 2.8%
36 | ClCCSc1nnc(-c2cccnc2)o1 | inactive: 0.5%
37 | CC(C)c1ccc(OP(=O)(Nc2ccccn2)Oc2ccccc2F)cc1 (stereo unspecified) | inactive: -0.3%
38 | COC(=O)C1(C)COP(=O)(N2CCCCCC2)OC1 (stereo unspecified) | inactive: -0.1%
39 | O=C(OC1CN2CCC1CC2)c1cccc2[nH]cnc12 (stereo unspecified) | inactive: 1%
40 | CCN(CC)C(=S)SC(NC=O)C(Cl)(Cl)Cl (stereo unspecified) | inactive: -0.9%
41 | CC(C)NC(=O)NP(=O)(Oc1ccccc1)Oc1ccccc1 | inactive: -2%
42 | O=[N+]([O-])c1cc([N+](=O)[O-])c(-c2ccn[nH]2)s1 | inactive: -0.6%
43 | CCOP1(=S)c2c(C)nn(CCC#N)c2N=C(c2ccccc2F)N1C (stereo unspecified) | inactive: -1%
44 | O=P(Nc1nccs1)(c1ccccc1)c1nc2ccccc2s1 (stereo unspecified) | inactive: -0.7%
45 | O=P(Nc1nccs1)(Oc1ccccc1)Oc1ccccc1 | inactive: -0.1%
46 | O=C(O)COc1ccc([As](=O)(O)O)cc1[N+](=O)[O-] | inactive: -1.5%
47 | Nc1ccccc1[As](=O)(O)c1ccccc1 | inactive: 0.3%
48 | NC(=O)Nc1ccc([As](=O)(O)O)cc1 | inactive: -0.4%
49 | N#CCCN(C(=O)COC(=O)C(O)(c1ccccc1)c1ccccc1)c1ccc(F)cc1 | inactive: -261%
50 | CCOP1(=S)c2c(C)nn(CCC#N)c2N=C(c2ccc(F)cc2)N1C (stereo unspecified) | inactive: 0.4%
51 | CN(C(=O)Cc1ccccc1)[C@@H]1CC[C@]2(CCCO2)C[C@H]1N1CCCC1 | inactive: -0.3%
52 | CN(C)C(=O)c1cc([N+](=O)[O-])cc2c1-c1c(cc([N+](=O)[O-])cc1[N+](=O)[O-])C2=O | inactive: -1.3%

Row | Structure (SMILES) | inhibition
53 | O=[N+]([O-])c1ccc2c(c1)nnn2O | inactive: -0.3%
54 | CN(C(=O)Cc1ccc(Cl)c(Cl)c1)[C@H]1CC[C@@]2(CCCO2)C[C@@H]1N1CCCC1 | inactive: -0.6%
55 | COc1cc(C(=O)NCC2(N3CCOCC3)CCCCC2)cc(Cl)c1OC(C)C | inactive: 0.1%
56 | O=[As](O)(O)c1cccnc1 | inactive: 1.3%
57 | CS(=O)(=O)c1ccc(Cl)c(NC(=O)COC(=O)C(O)(c2ccccc2)c2ccccc2)c1 | inactive: 1.2%
58 | O=[As](O)(c1cccc(O)c1)c1cccc(O)c1 | inactive: -0.7%
59 | Cc1cccc(OCC(=O)OC2CN3CCC2CC3)c1 (stereo unspecified) | inactive: -0.2%
60 | Nc1cccc2c([As](=O)(O)O)cccc12 | inactive: 1%
61 | Cc1ccc(NCCc2c([N+](=O)[O-])cc([N+](=O)[O-])cc2[N+](=O)[O-])cc1 | inactive: 2.9%
62 | CCCOP(=S)(Nc1nc(N)cc(=O)[nH]1)OCCC | inactive: 1.4%
63 | COc1cc(C2NCCC3(OCCO3)C2(C)C)cc(OC)c1OC (stereo unspecified) | inactive: -0.4%
64 | CCOP(=O)(Nc1cccc2ccccc12)OCC | inactive: -0.5%
65 | CCC1=CC2Cc3nc4ccc(Cl)cc4c(N)c3C(C1)C2 (stereo unspecified) | inactive: 0.1%
66 | O=P1(Nc2ccccn2)COc2ccccc2OC1 | inactive: 0.4%
67 | CCOP(=O)(NC(=NC(C)c1ccccc1)NC(C)c1ccccc1)OCC (stereo unspecified) | inactive: -2%
68 | CN(CCCl)Cc1cc(Cl)c(NC2=NCCN2)c(Cl)c1 | inactive: 1.5%
69 | CCOP(=O)(Nc1ccc(C)cn1)OCC | inactive: 0%
70 | O=P1(N(CCCl)CCCl)NCCC(C(F)(F)F)O1 (stereo unspecified) | inactive: -0.2%
71 | CC(C)(C)C(=O)NC(Sc1ncccn1)C(Cl)(Cl)Cl (stereo unspecified) | inactive: 0.9%
72 | COc1ccccc1CNC(=O)COC(=O)C(O)(c1ccccc1)c1ccccc1 | inactive: -2.4%
73 | CN(C(=O)Cc1ccc(Cl)c(Cl)c1)[C@@H]1CCCC[C@H]1N1CCCC1 | inactive: -0.4%
74 | CC(C)/C=N\N=C(\N)N[N+](=O)[O-] | inactive: 0.1%
75 | CC1(CBr)Cn2c(nc3ccccc3c2=O)S1 (stereo unspecified) | inactive: -0.6%
76 | Cc1nn(-c2ccccc2)c2c1P(=O)(N1CCOCC1)N(C)C(c1ccccc1)=N2 (stereo unspecified) | inactive: 1%
77 | Cc1ccc(C(=O)OC2CN3CCC2CC3)cc1 (stereo unspecified) | inactive: -3%
78 | CC1CCC(C(C)C)C(OP(=O)(Nc2ccccn2)c2ccccc2)C1 (stereo unspecified) | inactive: -1.5%

Row | Structure (SMILES) | inhibition
79 | CN(C)C1(CNC(=O)c2ccc(S(C)(=O)=O)cc2)CCCCC1 | inactive: -0.4%
80 | O=C(/C=C/c1ccccc1)OC1CN2CCC1CC2 (stereo unspecified) | inactive: -0.5%
81 | CCCC1OP(=O)(Nc2ccccc2)OCC1CC (stereo unspecified) | inactive: 0%
82 | Cc1ccc(S(=O)(=O)N(CCCN)CCCc2c(C)nc(N)[nH]c2=O)cc1 | inactive: -0.5%
83 | O=P1(Nc2ncccn2)COc2ccccc2OC1 | inactive: -1.6%
84 | Nc1cccc([As](=O)(O)c2ccccc2)c1 | inactive: 0.9%
85 | NS(=O)(=O)c1cccc(NC(=O)COC(=O)C(O)(c2ccccc2)c2ccccc2)c1 | inactive: -0.7%
86 | O=[As](O)(c1cccs1)c1cccs1 | inactive: 0.4%
87 | Cc1ccc(OCC(=O)OC2CN3CCC2CC3)cc1 (stereo unspecified) | inactive: -1.8%
88 | CN(C)C1(CNC(=O)c2ccc(Cl)c(S(N)(=O)=O)c2)CCCCC1 | inactive: 1.2%
89 | O=P(Nc1ccccn1)(c1ccc(Br)cc1)c1ccc(Br)cc1 | inactive: -2%
90 | Nc1ccc(CCCCOc2ccccc2)cc1 | inactive: -1.1%
91 | COc1ccc(N)c([N+](=O)[O-])c1[N+](=O)[O-] | inactive: -0.1%
92 | O=P(Nc1nc2ccccc2s1)(c1ccccc1)c1ccccc1 | inactive: -0.5%
93 | C[C@H]1OP(=O)(Oc2ccccc2)[C@H](O)[C@H](O)[C@H]1N=[N+]=[N-] (stereo partly specified) | inactive: 0.1%
94 | O=[As](O)(c1ccccc1)c1ccc(O)cc1 | inactive: 0.3%
95 | O=[N+]([O-])c1ncn(CCn2cnc([N+](=O)[O-])n2)n1 | inactive: 0%
96 | CC(=O)NC(SC(=S)N(C)C)C(Cl)(Cl)Cl (stereo unspecified) | inactive: 0.4%
97 | O=[N+]([O-])c1ccc(O)c(/C=N/Nc2ccc([N+](=O)[O-])cc2[N+](=O)[O-])c1 | inactive: -3.4%
98 | O=C(OC1CN2CCC1CC2)c1cccc(Cl)c1 (stereo unspecified) | inactive: 0.3%
99 | Nc1ccc([As](=O)(O)c2ccc([N+](=O)[O-])cc2)cc1 | inactive: -0.7%
100 | C(Cc1nn[nH]n1)Cc1nn[nH]n1 | inactive: -0.3%
101 | O=P(Nc1nccs1)(c1ccccc1)c1ccccc1 | inactive: -0.2%
